Each structure is given as a SMILES string.

Drawing on publication PMC10704857 (Journal of medicinal chemistry, 2021), this text covers IC50 for 1 molecule.

In the assay the target is RTA depurination of yeast ribosomes (Ricinus communis, UniProt P02879). It counts as biochemical.

Consider `Cc1cc(C)c(-c2ccc(C(=O)O)s2)c(C)c1` [RU-NT-75, 5-Mesitylthiophene-2-carboxylic Acid], for which 48 ± 11 µM corresponded to half-maximal inhibition (IC50).
